Measured values taken from paper PMC9178039.
Construct, isoform or probe ends are uncertain for at least one entry. For some assays here: At least one verdict rests on a figure or table, not on a statement of the authors.

Key:
[1] = test system: phosphorylated CarR (RstA)-His6; test: competition with a labelled probe; conditions: 30 mM acetyl phosphate, unlabeled PalmE, shift lost at 100-fold excess, EMSA: 5 mM HEPES pH 7.9, 40 mM KCl, 1 mM DTT, 0.1 mM EDTA, 5% glycerol, 5 ng probe, 20 min, room temperature, recombinant protein, protein details: C-terminal His6 (pET28a), label: 6-FAM, probe letters rebuilt from the primers and the genome
[2] = test system: phosphorylated CarR (RstA)-His6; test: EMSA; conditions: 30 mM acetyl phosphate, EMSA: 5 mM HEPES pH 7.9, 40 mM KCl, 1 mM DTT, 0.1 mM EDTA, 5% glycerol, 5 ng probe, 20 min, room …, recombinant protein, protein details: C-terminal His6 (pET28a), label: 6-FAM, probe letters rebuilt from the primers and the genome

## CTGTTTAACCCATAATGCAGGGGCATGTCGGTTAGCCTGAATAGCCGCCAAAATAGAGTGTCTTGTCTCGCAGTACATCGCCATTTTATTGATAAATTGGTTATGCACGACACCATAACCCTCTCTCTGTAACAAATCTGTCGCAGAATTGTATGGCATTGTCAGCTACCGAGCGCCCGACCTCCTTTCTATGGCGCGAAGGTCTACAACCTATAATCGCAACTAGTTGTCGAGCAACCGATTGACAATAGACATATCAAAATGGCGTTTCGTAGTGATCGCGTAGAAGCTTTCGGTCACCGCGTCCAGTGTTCCGTAATTGCACAGCCGTCCTGTTTCAATTTCATCTTGTACCACGACCTCGGGCACCACAGTGACGCCTTCCACATCGCGAGCCAATAGACGCAACATC (double strand) [PalmE]
[1]
  binding result: binds
[2]
  binding result: binds
